Results of unrelated studies side by side (data: NIAID ChemDB).

Shared fields: toxicity to cultured cells; cells: MT-4; endpoint: CC50

CCn is the concentration with n% toxicity to the cells. Lines come from different laboratories, so protocols vary.

CC(C)[C@H](NC(=O)N(C)c1ccccc1)C(=O)NC(Sc1ccccc1)C(O)C(NC(=O)[C@@H](NC(=O)N(C)c1ccccc1)C(C)C)Sc1ccccc1 ; value: 10 µM
Nc1ncnc2c1ncn2O[C@H]1CO[C@@H](CO)O1 ; value: >100 µg/mL
CCc1c(Sc2ccccc2)n(C/C=C/c2ccc([N+](=O)[O-])s2)c(=O)[nH]c1=O ; value: >1 µM
Cc1c(Cc2ccccc2)nc(OC2CCCC2)[nH]c1=O ; value: >1000 µM
O=c1nc(NO)ccn1[C@@H]1O[C@H](CO)C=C1Cl ; value: >500 µM
O=c1[nH]cnc2c1ncn2O[C@H]1CS[C@@H](CO)O1 ; value: 10 µg/mL
Cc1c(Sc2ccccc2)n(COCCI)c(=O)[nH]c1=O ; value: >1 µM
Clc1ccc(-c2nnc3sc(-c4ccco4)nn23)cc1Cl ; value: 27.2 µg/mL
O=C(O)c1cccc(Cc2cccc(C(=O)O)c2O)c1O ; value: 41 µg/mL
O=c1ccn([C@@H]2O[C@H](CO)C=C2Cl)c(=O)[nH]1 ; value: >500 µM
Cc1c(Cc2ccccc2)nc(OC2CCCCC2)[nH]c1=O ; value: 375 µM
Cc1cc2oc(=O)c(C(=O)/C=C/c3ccc(O)cc3)c(O)c2cc1Cl ; value: 2 µg/mL
Nc1ncnc2c1ncn2[C@H]1C[C@H]2OC[C@@H](O)[C@H]2O1 ; value: >100 µM
Clc1ccc(-c2nn3c(-c4ccc(Cl)c(Cl)c4)nnc3s2)cc1Cl ; value: 67.8 µg/mL
CCC(C)Oc1nc(Cc2ccccc2)c(C)c(=O)[nH]1 ; value: 180 µM
Cc1ccc(C(C)C)c2oc(=O)c(C(=O)/C=C/c3ccc(O)cc3)c(O)c12 ; value: 3.85 µg/mL
Cc1c(Sc2ccccc2)n(COCCN(C(=O)c2ccccc2)C(=O)c2ccccc2)c(=O)[nH]c1=O ; value: >1 µM
OC[C@@H]1OC[C@@H](On2cnc3c(Cl)ncnc32)O1 ; value: >100 µg/mL
CCOC(=O)N(Cc1ccccc1)CC(O)C(Sc1ccccc1)N(Cc1ccccc1)C(=O)OCC ; value: 50 µM
Cc1ccc(C(C)C)c2oc(=O)c(C(=O)/C=C/c3cccc([N+](=O)[O-])c3)c(O)c12 ; value: 10.9 µg/mL
Cc1c(Sc2ccccc2)n(COCCNC(=O)CCCl)c(=O)[nH]c1=O ; value: >1 µM
CCOC(=O)c1cccn1S(=O)(=O)c1cc(Cl)ccc1NS(=O)(=O)c1ccc(Cl)cc1 ; value: 17 µM
Cc1c(-c2c([C@H](OC(C)(C)C)C(=O)O)cnc3ccccc23)cc(F)c2c1CCCO2 ; value: 42 µM
CC1=CN([C@H]2C[C@H](N=[N+]=[N-])[C@@H](CO)O2)Cn2nnnc21 ; value: 39 µM
COc1cccc2c1nc(-c1ccccc1F)n2C(=O)OC(C)C ; value: 17.9 µg/mL
Cc1ccc(C(C)C)c2oc(=O)c(C(=O)/C=C/c3ccc(N(C)C)cc3)c(O)c12 ; value: >125 µg/mL
CCOC(=O)c1cccn1S(=O)(=O)c1cc(Cl)ccc1NC(=O)C(C)(C)C ; value: 42 µM
O=C(O)c1cc(C(O)(c2ccc(O)c(C(=O)O)c2)c2ccc(O)c(C(=O)O)c2)ccc1O ; value: 41 µg/mL
O=c1cc(Cc2ccccc2)nc(OCC2CCCO2)[nH]1 ; value: >1000 µM
COc1cccc2c1nc(-c1ccccc1F)n2Cc1ccccc1C ; value: 13.2 µg/mL
Cc1cc2oc(=O)c(C(=O)/C=C/c3ccc(N(C)C)cc3)c(O)c2cc1Cl ; value: >125 µg/mL
Cc1cc2nc(-c3c(F)cccc3F)n(Cc3c(F)cccc3F)c2cc1C ; value: 6.15 µM
CC=CCn1c(-c2ccccc2F)nc2c(OC)cccc21 ; value: 13.17 µg/mL
Cc1c(Sc2ccccc2)n(COCCSc2ccccn2)c(=O)[nH]c1=O ; value: >1 µM
Nc1nc2c(ncn2O[C@H]2CO[C@@H](CO)O2)c(=O)[nH]1 ; value: >100 µg/mL
Cc1c(Sc2ccccc2)n(COCCN(CC#N)CC#N)c(=O)[nH]c1=O ; value: >1 µM
Cc1cc2oc(=O)c(C(=O)/C=C/c3cccc(Oc4ccccc4)c3)c(O)c2cc1Cl ; value: 51.6 µg/mL
CCOC(=O)c1cccn1S(=O)(=O)c1ccc(NC(N)=O)cc1 ; value: 128.8 µM
Clc1ccc(-c2nnc3n2N=C(c2ccccc2)CS3)cc1Cl ; value: 1.97 µg/mL
Fc1cccc(F)c1Cn1c(-c2c(F)cccc2F)nc2ccccc21 ; value: 33.63 µM
CC(C)[C@H](N)C(=O)N(Cc1ccccc1)CC(O)C(Sc1ccccc1)N(Cc1ccccc1)C(=O)[C@@H](N)C(C)C ; value: 50 µM
O=C(O)c1cc(Cc2ccc(O)c(C(=O)O)c2)ccc1O ; value: 35 µg/mL
CC(=O)Nc1ccc(Cl)cc1S(=O)(=O)n1ccc(C(C)=O)c1 ; value: >200 µM
CNc1ccn([C@@H]2O[C@H](CO)C=C2Cl)c(=O)n1 ; value: >500 µM
CCOC(=O)c1cccn1S(=O)(=O)c1cc(Cl)ccc1NC(=O)CN1CCOCC1 ; value: 100 µM
CC(C)[C@H](NC(=O)OC(C)(C)C)C(=O)NC(Sc1ccccc1)C(O)C(NC(=O)[C@@H](NC(=O)OC(C)(C)C)C(C)C)Sc1ccccc1 ; value: 100 µM
COc1cccc2c1nc(-c1ccccc1F)n2Cc1cccc(C(F)(F)F)c1 ; value: 15 µg/mL
O=c1[nH]cnc2c1ncn2O[C@@H]1CO[C@@H](CO)O1 ; value: >100 µg/mL
COc1cc2c(cc1Cc1c(F)cccc1Cl)nc(-c1c(F)cccc1Cl)n2Cc1c(F)cccc1Cl ; value: 127 µM
O=c1cc(Cc2ccccc2)[nH]c(=O)[nH]1 ; value: >1000 µM
Cc1cn([C@@H]2O[C@H](CO)[C@H](O)[C@H]2F)c(=O)[nH]c1=O ; value: >500 µM
O=C(OCc1ccccc1)N(Cc1ccccc1)CC(O)C(Sc1ccccc1)N(Cc1ccccc1)C(=O)OCc1ccccc1 ; value: 100 µM
O=c1cc(Cc2ccccc2)nc(OC2CCCCC2)[nH]1 ; value: 157 µM
Cc1cc2oc(=O)c(C(=O)/C=C/c3cccc([N+](=O)[O-])c3)c(O)c2cc1Cl ; value: 56 µg/mL
COc1ccc(CN(CC(O)C(Sc2ccccc2)N(Cc2ccc(OC)cc2)C(=O)N(C)c2ccccc2)C(=O)N(C)c2ccccc2)cc1 ; value: 10 µM